PubChem BioAssay AID504761 | Drosophila RNAi Screening Center | 2011

Aim: 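Insect host genes that dengue virus relies on to spread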 (primary screen)
System: D.Mel-2 cells from Drosophila
Reagent: long dsRNA against Drosophila genes
Treatment: infection with dengue virus type 2; dose and infection time not stated
Measurement: 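Cells stained for dengue envelope protein and imaged; percent of infected cells per well on duplicate plates, ranked by infection, with stained nuclei counted for cell number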
Direction: infection score: higher = more virus-infected cells; cell count: higher = more cells in the well
Hit rule: 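Low infection ranks in the two replicates (chance level up to 0.065) followed by a retest with a 1.5-fold or larger significant decrease, p below 0.05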
Calls: active = confirmed: knock-down lowers infection; inactive = not picked or not confirmed
The deposit covers about 22,000 reagents; below is an unselected part of those with a known target gene and a result. Of all reagents, 116 (0.52%) are marked active. 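Calls depend on retest data that are not deposited; infection was ranked per plate without normalising between plates; the unit of the infection score is not given.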 Raw values are not corrected between plates. The numbers tell different reagents against one gene apart. Names joined by + are all predicted targets of the reagent. Not given: the amount of reagent, the time to read-out.

| gene knocked down | dsRNA no. | infection score, replicate 1 | infection score, replicate 2 | cell count, replicate 1 | cell count, replicate 2 | call |
| --- | --- | --- | --- | --- | --- | --- |
| SuUR | 1 | 4.02 | 2.97 | 5678 | 6235 | inactive |
| tinc | 1 | 0.46 | 5.99 | 6555 | 6465 | inactive |
| tinc | 2 | 1.56 | 7.36 | 6338 | 6275 | inactive |
| tinc | 3 | 6.18 | 3.4 | 5645 | 6730 | inactive |
| tinc | 4 | 6.11 | 13.1 | 6280 | 5995 | inactive |
| ksr | 1 | 11.9 | 15.2 | 6207 | 6658 | inactive |
| TSG101 | 1 | 1.65 | 3.94 | 5998 | 5704 | inactive |
| CG14642 | 1 | 11.3 | 25.9 | 5798 | 5221 | inactive |
| qkr58E-1 | 1 | 8.86 | 18.4 | 6322 | 5213 | inactive |
| qkr58E-1 | 2 | 4.2 | 8.01 | 6458 | 6429 | inactive |
| CG7069 | 1 | 6 | 2.47 | 6403 | 6527 | inactive |
| CG2818 | 1 | 2.81 | 2.64 | 6478 | 6358 | inactive |
| tkv | 1 | 5.02 | 12.4 | 5977 | 5429 | inactive |
| tkv | 2 | 5.82 | 8.63 | 6339 | 6270 | inactive |
| tkv | 3 | 1.51 | 0.65 | 5912 | 6630 | inactive |
| CG10803 | 1 | 19.7 | 4.45 | 5684 | 6713 | inactive |
| CG10803 | 2 | 7.36 | 6.11 | 5341 | 5795 | inactive |
| CG14234 | 1 | 4.69 | 3.92 | 5716 | 5996 | inactive |
| CG14234 | 2 | 8.22 | 1.81 | 5958 | 6635 | inactive |
| GLS | 1 | 16.7 | 14.6 | 6468 | 6197 | inactive |
| GLS | 2 | 1.34 | 1.76 | 6693 | 6833 | inactive |
| CG32640 + CG32641 | 1 | 2.12 | 3.05 | 5796 | 6200 | inactive |
| Hakai | 1 | 22.2 | 9.68 | 5659 | 6573 | inactive |
| CG14346 | 1 | 1.26 | 2.99 | 6274 | 6397 | inactive |
| CG14346 | 2 | 6.11 | 8.85 | 6711 | 6599 | inactive |
| mTTF | 1 | – | 20.6 | 477 | 5198 | inactive |
| CG12069 | 1 | 5.25 | 3.1 | 3010 | 6816 | inactive |
| CG12069 | 2 | 3 | 6.74 | 6124 | 5952 | inactive |
| Cyp28d2 | 1 | 4.68 | 2.43 | 6175 | 6865 | inactive |
| Cyp28d2 | 2 | 11.8 | 8.9 | 5849 | 6123 | inactive |
| CG1983 | 1 | 21.5 | – | 5411 | 267 | inactive |
| CG5506 | 1 | 0.97 | 2.64 | 6370 | 6641 | inactive |
| CG9815 | 1 | 17.5 | 22.9 | 3700 | 5946 | inactive |
| CG9815 | 2 | 5.39 | 10.2 | 6480 | 6455 | inactive |
| CG16972 | 1 | 4.16 | 6.4 | 6100 | 6294 | inactive |
| zpg | 1 | 1.65 | 4.37 | 5582 | 5383 | inactive |
| zpg | 2 | 6.59 | 3.85 | 6371 | 6078 | inactive |
| PIP4K | 1 | 2.33 | 0.6 | 6018 | 499 | inactive |
| CG11911 | 1 | 8.93 | 3.96 | 5837 | 6614 | inactive |
| CG11911 | 2 | 5.99 | 5.06 | 1052 | 5984 | inactive |
| Best2 | 1 | 0.99 | 3.69 | 6162 | 6078 | inactive |
| hay | 1 | 16 | 20.7 | 5571 | 5777 | inactive |
| Spt6 | 1 | 21.7 | 29.1 | 4222 | 1917 | inactive |
| CG31959 (retired record) | 1 | 2.98 | 17.1 | 6908 | 6417 | inactive |
| CG17698 | 1 | 14.4 | 10.8 | 4468 | 5843 | inactive |
| esg | 1 | 2.23 | 3.14 | 6560 | 6468 | inactive |
| CG17959 | 1 | 2.32 | 1.79 | 6034 | 5862 | inactive |
| CG17959 | 2 | 0.77 | – | 388 | 340 | inactive |
| muc | 1 | 2.95 | 5.55 | 5801 | 6416 | inactive |
| muc | 2 | 1.87 | 1.42 | 6407 | 6007 | inactive |
| muc | 3 | 5.44 | 2.22 | 5955 | 6386 | inactive |
| CG3494 | 1 | 2.67 | 9.86 | 6823 | 5839 | inactive |
| Cpr67Fa1 | 1 | 1.77 | 1.23 | 5936 | 6192 | inactive |
| Or43b | 1 | 14.6 | 13.8 | 5111 | 6248 | inactive |
| Or43b | 2 | – | 17.5 | 407 | 5627 | inactive |
| Eaat2 | 1 | 8.56 | 1.66 | 6517 | 6157 | inactive |
| Eaat2 | 2 | 4.61 | 5.45 | 6357 | 5858 | inactive |
| Eaat2 | 3 | 10.4 | 3.03 | 5720 | 6115 | inactive |
| SmE | 1 | 18.3 | 3.09 | 3531 | 3921 | inactive |
| CG13124 | 1 | 10.8 | 27.8 | 6120 | 5828 | inactive |
| CG13124 | 2 | 11.6 | 15.6 | 6518 | 6315 | inactive |
| Ublcp1 | 1 | 9.94 | 1.86 | 6487 | 269 | inactive |
| Ublcp1 | 2 | 13.1 | 9.7 | 4851 | 6269 | inactive |
| Naglu | 1 | 1.34 | 3.47 | 6430 | 5931 | inactive |
| MrgBP | 1 | 16.2 | 3.61 | 1272 | 1357 | inactive |
| MrgBP | 2 | 19.1 | 11.9 | 6578 | 6741 | inactive |
| CG5122 | 1 | 10.9 | 1.66 | 6307 | 6217 | inactive |
| ND-B12 | 1 | 0.89 | 1.49 | 5973 | 6123 | active |
| SF2 | 1 | 11.3 | 6.02 | 5141 | 830 | inactive |
| CG31673 | 1 | 3.38 | 28.9 | 5735 | 5407 | inactive |
| Hr83 | 1 | 4.5 | 14.3 | 5467 | 6050 | inactive |
| Hr83 | 2 | 7.66 | 7.88 | 5251 | 4782 | inactive |
| CG12375 | 1 | 8.13 | 4.53 | 6184 | 6496 | inactive |
| CG12375 | 2 | 11.7 | 13.9 | 6857 | 6437 | inactive |

5 of these entries, set out differently.
{"gene knocked down": "ND-B12", "dsRNA no.": 1, "infection score, replicate 1": 0.89, "infection score, replicate 2": 1.49, "cell count, replicate 1": 5973, "cell count, replicate 2": 6123, "call": "active"}
{"gene knocked down": "SF2", "dsRNA no.": 1, "infection score, replicate 1": 11.3, "infection score, replicate 2": 6.02, "cell count, replicate 1": 5141, "cell count, replicate 2": 830, "call": "inactive"}
{"gene knocked down": "CG31673", "dsRNA no.": 1, "infection score, replicate 1": 3.38, "infection score, replicate 2": 28.9, "cell count, replicate 1": 5735, "cell count, replicate 2": 5407, "call": "inactive"}
{"gene knocked down": "Hr83", "dsRNA no.": 1, "infection score, replicate 1": 4.5, "infection score, replicate 2": 14.3, "cell count, replicate 1": 5467, "cell count, replicate 2": 6050, "call": "inactive"}
{"gene knocked down": "Hr83", "dsRNA no.": 2, "infection score, replicate 1": 7.66, "infection score, replicate 2": 7.88, "cell count, replicate 1": 5251, "cell count, replicate 2": 4782, "call": "inactive"}
